A mixed list of measured activities; the numbers were collected in NIAID ChemDB.

Common to all: whole-cell or culture tests

ECn: concentration that inhibits the pathogen or its effect by n%. Two numbers with a dash give a range or band. A number after MIC or MFC names an inhibition level or a share of isolates. An empty or dashed field is not shown. Lines come from different laboratories, so protocols vary. Fold resistance: result on the changed form divided by that on wild type. Percent inhibition refers to the dose given; in toxicity tests it is the harm to the cells.

smiles | method | species | mutations | cells | measure | strain or isolate | tested at | result
NC(=O)c1nc(F)c[nH]c1=O | plaque count | Influenza C virus | - | MDCK | EC50 | Yamagata/3/96 | - | 0.057 µg/mL
Nc1ncnc2c1ncn2C[C@@H](CO)OCP(=O)(O)O | plaque count | Mouse cytomegalovirus | - | C1271 | EC50 | WILD TYPE | - | 0.9 µM
CC(C)(C)OC(=O)N[C@@H]1CCCCC/C=C\[C@@H]2C[C@@]2(C(=O)NS(=O)(=O)C2CC2)NC(=O)[C@@H]2C[C@@H](OC(=O)N3Cc4cccc(F)c4C3)CN2C1=O | antigen | Hepatitis C virus | - | Huh7.5 | EC50 | JFH-1 | - | 0.055 µM
CN(C)c1ccc(O)c2c1C[C@H]1C[C@H]3[C@H](N(C)C)C(=O)C(C(N)=O)=C(O)[C@@]3(O)C(=O)C1=C2O | - | Staphylococcus aureus | - | - | MIC90 | 25 strains (methicillin-susceptible) | - | 0.12 µg/mL
OC[C@@H]1C[C@@H](O)[C@H](n2cnc3c(NC4CCCCC4)nc(Cl)cc32)O1 | cytopathic effect | Maedi-visna virus | - | Sheep chondrocytes G81092 | EC50 | KV1772 | - | 1.5 µM
Cn1c2ccccc2c2c1cc(C#N)c(=O)n2-c1ccc([N+](=O)[O-])cc1 | luciferase | HIV-1 | RT-M41L S68N G112S M184V | HeLa | fold resistance | Recombinant | - | 36.5
O=c1[nH]c(=O)n([C@H]2C[C@H](O)[C@@H](CO)O2)cc1/C=C/Br | - | Epstein-Barr virus | - | P3HR-1 | inhibition | - | 0.1 µM | 3%
Nc1ccnc2c1ncn2[C@@H]1O[C@H](CO)C[C@H]1O | cytopathic effect | Maedi-visna virus | - | Sheep chondrocytes G81092 | EC50 | KV1772 | - | 4.1 µM
Nc1ncc2c(ncn2COC(CO)CO)n1 | cytopathic effect | Human herpesvirus 6 | - | HSB-2 | EC50 | GS | - | 0.03 µM
CCCCCCCC/C=C\CCCCCCCC(=O)OCC(O)CO | cytopathic effect | Herpes simplex virus 1 | - | HeLa | EC50 | KOS | - | >200 µg/mL
Nc1nc(N)c2ncn(CCOCP(=O)(O)O)c2n1 | plaque count | Mouse cytomegalovirus | - | C1271 | EC50 | Ganciclovir-resistant | - | 0.3 µM
OC[C@H]1O[C@@H](n2cnc3c(NC4CC4)nc(Cl)nc32)C[C@@H]1O | cytopathic effect | Bovine herpesvirus 1 | - | MDBK | EC50 | IRB-LA | - | >50 µM
COc1c(N2CCNC(C)C2)c(F)cc2c(=O)c(C(=O)O)cn(C3CC3)c12 | - | Haemophilus influenzae | - | - | MIC90 | 38 strains (ampicillin-susceptible) | - | 0.008 µg/mL
NC(=O)c1ncn([C@@H]2O[C@H](CO)[C@@H](O)[C@H]2O)n1 | plaque count | Respiratory syncytial virus | - | HEP-2 | EC50 | K656 | - | 14.7 µM
C[C@H]1COc2c(N3CCN(C)CC3)c(F)cc3c(=O)c(C(=O)O)cn1c23 | - | Staphylococcus aureus | - | - | MIC90 | 24 strains (ofloxacin-susceptible) | - | 0.5 µg/mL
Nc1nc2c(nnn2CCOCP(=O)(O)O)c(=O)[nH]1 | cytopathic effect | Human herpesvirus 6 | - | HSB-2 | EC50 | GS | - | 25 µM
CCCCCCCCCC(=O)N[C@H]1[C@H](Oc2c3cc4cc2Oc2ccc(cc2Cl)[C@@H](O[C@@H]2O[C@H](CO)[C@@H](O)[C@H](O)[C@H]2NC(C)=O)[C@@H]2NC(=O)[C@H](NC(=O)[C@@H]4NC(=O)[C@H]4NC(=O)[C@@H](Cc5ccc(c(Cl)c5)O3)NC(=O)[C@H](N)c3ccc(O)c(c3)Oc3cc(O)cc4c3)c3ccc(O)c(c3)-c3c(O[C@H]4O[C@H](CO)[C@@H](O)[C@H](O)[C@@H]4O)cc(O)cc3[C@H](C(=O)O)NC2=O)O[C@H](CO)[C@@H](O)[C@@H]1O | - | Staphylococcus aureus | - | - | MIC90 | 25 strains (methicillin-susceptible) | - | 0.5 µg/mL
Nc1nc2c(ncn2CC(CO)OCP(=O)(O)O)c(=O)[nH]1 | plaque count | Mouse cytomegalovirus | - | C1271 | EC50 | HPMPC-resistant | - | 3.1 µM
NC(=O)c1ncn([C@@H]2O[C@H](CO)[C@@H](O)[C@H]2O)n1 | neutral red | Measles virus | - | CV-1 | EC50 | Chicago | - | 20 µg/mL
Nc1nc2c(ncn2C[C@@H](CO)OCP(=O)(O)O)c(=O)[nH]1 | antigen / flow cytometry | Human herpesvirus 6 | - | HSB-2 | EC50 | GS | - | 56 µM
OC[C@@H]1CC[C@H](n2cnc3c(NC4CCCCCC4)nc(Cl)nc32)O1 | cytopathic effect | Maedi-visna virus | - | Sheep chondrocytes G81092 | EC50 | KV1772 | - | 0.027 µM
COC(=O)Nc1nc2ccccc2[nH]1 | - | Cryptococcus neoformans | - | - | EC50 | IU4 | - | <3.6 µg/mL
Nc1ccn(C[C@@H](CO)OCP(=O)(O)O)c(=O)n1 | cytopathic effect | Adenovirus | - | - | EC50 | TRIM (TYPE 8) | - | 4 µg/mL
O=c1cnn([C@@H]2O[C@H](CO)[C@@H](O)[C@H]2O)c(=O)[nH]1 | virus yield | Dengue virus | - | VERO | EC90 | TYPE 2 (NGC) | - | 2.1 µg/mL
C[C@H](Cn1cnc2c(N)ncnc21)OCP(=O)(O)O | luciferase | HIV-1 | RT-M184V | HeLa | fold resistance | Recombinant | - | 1
Nc1ncnc2c1ncn2[C@@H]1O[C@H](CO)[C@@H](O)[C@@H]1O | - | Cryptosporidium parvum | - | - | inhibition | - | 10 µg/mL | 19%
CC(C)=CCN1Cc2cc(Cl)cc3[nH]c(=S)n(c23)C[C@@H]1C | - | HIV-1 | RT-D67N K70R T215Y K219Q Y181C | MT-4 | EC95 | - | - | >3 µM
N[C@@H]1CN(c2c(F)cc3c(=O)c(C(=O)O)cn([C@@H]4C[C@@H]4F)c3c2Cl)CC12CC2 | - | Staphylococcus aureus | - | - | MIC50 | 25 strains (methicillin-susceptible) | - | 0.03 µg/mL
CC(=O)NC[C@H]1CN(c2ccc(N3CCOCC3)c(F)c2)C(=O)O1 | - | Staphylococcus aureus | - | - | MIC90 | Oxacillin-susceptible | - | 1–4 µg/mL
C/C=C/C(=O)OC | cytopathic effect | Herpes simplex virus 1 | - | HeLa | EC50 | KOS | - | >200 µg/mL
OC[C@@H]1CC[C@H](n2cnc3c(NC4CCCCCC4)ncnc32)O1 | cytopathic effect | Bovine herpesvirus 1 | - | MDBK | EC50 | IRB-LA | - | >50 µM
C#CC[C@@H](C(=O)N[C@H](/C=C/C(=O)OCC)C[C@@H]1CCNC1=O)n1cccc(NC(=O)c2cc(C)on2)c1=O | cytopathic effect / XTT | Rhinovirus | - | H1-HELA | inhibition | Clinical isolate T (serotype 16) | 0.145 µM | 90%
CCCN(CCC)c1c([N+](=O)[O-])cc(S(N)(=O)=O)cc1[N+](=O)[O-] | - | Toxoplasma gondii | - | - | EC50 | RH | - | 0.3 µM
Nc1cc(Cl)nc2c1ncn2[C@@H]1O[C@H](CO)C[C@H]1O | cytopathic effect | Bovine herpesvirus 1 | - | MDBK | EC50 | IRB-LA | - | >50 µM
CCO/N=C/c1ccc(OCCC2CCN(c3ccc(C)nn3)CC2)cc1 | neutral red | Rhinovirus | - | KB | EC50 | 1505 (ICAM-1 receptor group 48) | - | 0.158 µM
O=C(O)P(=O)(O)O | plaque count | Mouse cytomegalovirus | - | C1271 | EC50 | Foscarnet-resistant | - | 640 µM
Nc1ncnc2c1ncn2C[C@H](O)CO | - | Epstein-Barr virus | - | P3HR-1 | inhibition | - | 100 µM | 4%
CCn1cc(C(=O)O)c(=O)c2cc(F)c(N3CCNCC3)cc21 | - | Staphylococcus aureus | - | - | MIC50 | 30 strains | - | 2 µg/mL
N[C@@H](COP(=O)(O)OC[C@H](O)CO)C(=O)O | cytopathic effect | Herpes simplex virus 1 | - | HeLa | EC50 | KOS | - | >200 µg/mL
NC12CC3CC(CC(C3)C1)C2 | - | Cryptosporidium parvum | - | - | inhibition | - | 50 µg/mL | 0%
Clc1ccc(COC(Cn2ccnc2)c2ccc(Cl)cc2Cl)c(Cl)c1 | broth dilution | Candida krusei | - | - | MIC100 | LM 120 | - | 32 µg/mL
CO[C@H]1/C=C/O[C@@]2(C)Oc3c(C)c(O)c4c(O)c(c5c(c4c3C2=O)NC2(CCN(CC(C)C)CC2)N=5)=NC(=O)/C(C)=C\C=C\[C@H](C)[C@H](O)[C@@H](C)[C@@H](O)[C@@H](C)[C@H](OC(C)=O)[C@@H]1C | - | Staphylococcus aureus | - | - | MIC90 | 20 strains (methicillin-susceptible) | - | 0.0313 µg/mL
CO[C@H]1O[C@@H](n2ccc(=O)[nH]c2=O)C[C@@H]1N=[N+]=[N-] | - | Cryptosporidium parvum | - | - | inhibition | - | 25 µg/mL | 5%
COC(=O)Nc1nc2ccc(Sc3ccccc3)cc2[nH]1 | - | Cryptococcus neoformans | - | - | EC50 | ATCC 14116 | - | 0.016 µg/mL
Cc1cn([C@@H]2O[C@H](CO)[C@@H](O)[C@@H]2O)c(=O)[nH]c1=O | - | Cryptosporidium parvum | - | - | inhibition | - | 5 µg/mL | 0%
Nc1nc2c(ncn2CCOCP(=O)(O)O)c(=O)[nH]1 | cytopathic effect | Measles virus | - | - | EC50 | Edmonston | - | >32 µg/mL
CC[C@H]1OC(=O)[C@H](C)[C@@H](O[C@H]2C[C@@](C)(OC)[C@@H](O)[C@H](C)O2)[C@H](C)[C@@H](O[C@@H]2O[C@H](C)C[C@H](N(C)C)[C@H]2O)[C@](C)(OC)C[C@@H](C)C(=O)[C@H](C)[C@@H](O)[C@]1(C)O | - | Staphylococcus aureus | - | - | MIC90 | 20 strains (methicillin-resistant) | - | >32 µg/mL
CC(C)(CO)C(=O)SCCOP(=O)(NCc1ccccc1)OC[C@H]1O[C@@H](n2cnc3c(=O)[nH]c(N)nc32)[C@](C)(O)[C@@H]1O | replicon | Hepatitis C virus | L31M | Replicon cells | fold resistance | GT1b | - | 0.91
N#Cc1cc2[nH]c3ccccc3c2n(-c2ccc([N+](=O)[O-])cc2)c1=O | luciferase | HIV-1 | RT-K103N | HeLa | fold resistance | NNRTI-resistant | - | 0.6
C[C@@H](O)[C@H]1C(=O)N2C(C(=O)O)=C(SCCN=CN)C[C@H]12 | - | Staphylococcus aureus | - | - | MIC90 | 24 strains (ofloxacin-susceptible) | - | 32 µg/mL
CC[C@H]1OC(=O)[C@H](C)[C@@H](OC2CC(C)(OC)C(O)C(C)O2)C(C)[C@@H](OC2OC(C)CC(N(C)C)C2O)[C@](C)(O)C[C@@H](C)C(=O)[C@H](C)[C@@H](O)[C@H]1C | cytopathic effect | Herpes simplex virus 1 | - | HeLa | EC50 | KOS | - | >200 µg/mL
CC[C@H]1C[C@]1(NC(=O)[C@@H]1C[C@@H]2CN1C(=O)[C@H](C(C)(C)C)NC(=O)OCC(C)(C)CCCCc1cccc3c1CN(C3)C(=O)O2)C(=O)NS(=O)(=O)C1CC1 | antigen | Hepatitis C virus | - | Huh7.5 | EC50 | NZL1 | - | 4.786 µM
COC1=CC(=O)N(C(=O)C2CSC(C(CO)NC(=O)c3csc(C=NO)n3)=N2)C1 | cytopathic effect | Herpes simplex virus 1 | - | HeLa | EC50 | KOS | - | >200 µg/mL
O=c1[nH]cnc2c1ncn2[C@H]1CC[C@@H](CO)O1 | plaque count | HIV-1 | RT-L74V Y181C | HT4 + HT4 LacZ-1 | fold resistance | HXB2 | - | 6.36
OC[C@H]1O[C@@H](n2cnc3c(NC4CC4)ncnc32)[C@H](O)[C@@H]1O | cytopathic effect | Maedi-visna virus | - | Sheep chondrocytes G81092 | EC50 | KV1772 | - | 15 µM
OC(Cn1cncn1)(Cn1cncn1)c1ccc(F)cc1F | broth dilution | Candida albicans | - | - | MIC | YL 366 | - | 128 µg/mL
Nc1ncnc2c1cnn2C[C@@H](CO)OCP(=O)(O)O | cytopathic effect | Human herpesvirus 6 | - | HSB-2 | EC50 | GS | - | >10 µM
C[C@H]1NCc2cc(-c3ccc4c(=O)c(C(=O)O)cn(C5CC5)c4c3OC(F)F)ccc21 | - | Staphylococcus aureus | - | - | MIC90 | 25 strains (methicillin-susceptible) | - | ≤0.06 µg/mL
COc1cc2oc(=O)ccc2cc1CC(O)C(C)(C)O | - | Klebsiella pneumoniae | - | - | MIC | ESBL-75799 | - | 125 µg/mL
CCCCNC(=O)n1c(NC(=O)OC)nc2ccccc21 | - | Cryptococcus neoformans | - | - | EC90 | IU4 | - | 3.7 µg/mL
S=c1nc[nH]c2c1ncn2C1CCCO1 | plaque count | Dengue virus | - | LLC-MK2 | inhibition | TYPE 2 | 100 µM | 0%
N[C@@H](C(=O)N[C@@H]1C(=O)N2C(C(=O)O)=C(Cl)CS[C@H]12)c1ccccc1 | - | Staphylococcus aureus | - | - | MIC90 | 30 strains | - | 2 µg/mL
Nc1ncnc2c1ncn2C[C@@H](CO)OCP(=O)(O)O | cytopathic effect | Adenovirus | - | - | EC50 | 13306 (TYPE 8) | - | 10 µg/mL
Nc1nc2c(ncn2COCCO)c(=O)[nH]1 | - | Cryptosporidium parvum | - | - | inhibition | - | 10 µg/mL | 6%
COc1cc(C[C@H](C)[C@H](C)Cc2ccc(O)c(O)c2)ccc1O | broth dilution | Candida albicans | - | - | MIC100 | ATCC 10231 | - | 62.5 µg/mL
CC[C@H]1OC(=O)[C@H](C)[C@@H](O[C@H]2C[C@@](C)(OC)[C@@H](O)[C@H](C)O2)[C@H](C)[C@@H](O[C@@H]2O[C@H](C)C[C@H](N(C)C)[C@H]2O)[C@](C)(O)C[C@@H](C)C(=O)[C@H](C)[C@@H](O)[C@]1(C)O | - | Haemophilus influenzae | - | - | MIC90 | 44 strains | - | 8 µg/mL
NC(=O)c1c[se]c([C@@H]2O[C@H](CO)[C@@H](O)[C@H]2O)n1 | cytopathic effect | Reovirus | - | HeLa | EC50 | TYPE 3/ABNEY | - | 8 µg/mL
Nc1nc2c(ncn2CCC(CO)CO)c(=O)[nH]1 | antigen / flow cytometry | Human herpesvirus 6 | - | HSB-2 | EC50 | GS | - | >400 µM